Compound potency records, mixed from different reports. Data source: NIAID ChemDB in PubChem.

All rows: tests in culture; agent: HIV-1

Rows are shuffled and stem from different studies. An empty or dashed field is not shown. Percent inhibition refers to the dose given; in toxicity tests it is the harm to the cells. Fold resistance has wild type as its base. ECn is the concentration giving n% inhibition of infection, replication or growth.

CC(C)(C)NC(=O)[C@@H]1C[C@@H]2CCCC[C@@H]2CN1C[C@@H](O)[C@H](Cc1ccccc1)NC(=O)[C@H](CC(N)=O)NC(=O)c1ccc2ccccc2n1 ; strain or isolate: NL4-3 ; changes: PR-I84V ; cells: MT-4 ; read-out: EC90 ; method: p24 ; value: 0.09 µM
Cc1ccnc2c1NC(=O)c1cccnc1N2C1CC1 ; strain or isolate: NL4-3 ; changes: RT-V179D ; cells: CEM + CEM-SS ; read-out: EC50 ; method: XTT ; value: 0.03 µM
CC[C@H](C)[C@H](C(=O)O)N1C[C@H](CN2CCC(c3cc(Cc4ccc(O)cc4)nn3CC)CC2)[C@@H](c2cccc(F)c2)C1 ; strain or isolate: BaL ; cells: HeLa ; read-out: EC90 ; method: β-galactosidase ; value: 0.0004 µM
Cc1cn([C@H]2C[C@H](N=[N+]=[N-])[C@@H](COP(=O)(O)OC[C@H]3OC(O)[C@@H](O)[C@@H](O)[C@@H]3O)O2)c(=O)[nH]c1=O ; strain or isolate: LAV-Bru ; setting: 15 d ; cells: CEM ; read-out: inhibition ; method: RT activity ; tested at: 5 µM ; value: 93%
N#Cc1cc2[nH]c3ccccc3c2n(-c2ccc([N+](=O)[O-])cc2)c1=O ; strain or isolate: NNRTI-resistant ; changes: RT-K103N L100I ; cells: HeLa ; read-out: EC50 ; method: luciferase ; value: 0.577 µM
CCc1c(Sc2ccccn2)n(COCc2ccccc2)c(=O)[nH]c1=O ; strain or isolate: Costatolide-resistant (RT L100I T139I) ; changes: RT-L100I T139I ; cells: CEM + CEM-SS ; read-out: EC50 ; method: XTT ; value: 3 µM
Cn1c2ccccc2c2c1cc(C#N)c(=O)n2-c1ccc([N+](=O)[O-])cc1 ; strain or isolate: NRTI resistant ; changes: RT-M41L K70R T215F K219E ; cells: HeLa ; read-out: fold resistance ; method: luciferase ; value: 1.4
CC[C@@H](C)[C@H](C(=O)O)N1C[C@H](CN2CCC(c3cc(Cc4ccc(S(=O)(=O)c5ccccc5)cc4)nn3CC)CC2)[C@@H](c2cccc(F)c2)C1 ; strain or isolate: BaL ; setting: 50% human serum ; cells: HeLa ; read-out: EC90 ; method: β-galactosidase ; value: 0.033 µM
Cc1cn([C@H]2C[C@H](N=[N+]=[N-])[C@@H](COP(=O)(O)OC[C@H]3OC(O)[C@H](O)[C@@H](O)[C@@H]3O)O2)c(=O)[nH]c1=O ; strain or isolate: LAV-Bru ; setting: 11 d ; cells: U-937 ; read-out: inhibition ; method: RT activity ; tested at: 5 µM ; value: 0%
CC(C)CN(C[C@@H](O)[C@H](Cc1ccccc1)NC(=O)[C@H](CC(N)=O)NC(=O)c1ccc2ccccc2n1)C(=O)NC(C)(C)C ; strain or isolate: NL4-3 ; changes: PR-L10R L63P V82T I84V ; cells: MT-4 ; read-out: EC95 ; method: p24 ; value: 0.8 µM
O=C(O)P(=O)(O)O ; strain or isolate: IIIB ; setting: 14 d ; cells: PBL ; read-out: inhibition ; method: RT activity ; tested at: 16 µM ; value: 67%
c1cc(CN2CCCNCCNCCCNCC2)ccc1CN1CCCNCCNCCCNCC1 ; strain or isolate: 92TH001 CLADE E R5 ; cells: PBMC ; read-out: inhibition ; method: p24 ; tested at: 0.1 µM ; value: 21%
O=C1N(Cc2ccc(CO)cc2)[C@H](Cc2ccccc2)[C@H](O)[C@@H](O)[C@@H](Cc2ccccc2)N1Cc1ccc(CO)cc1 ; strain or isolate: NL4-3 ; changes: PR-M46I L63P V82T I84V ; cells: MT-4 ; read-out: EC95 ; method: p24 ; value: 3 µM
CCn1nc(Cc2ccc(OC)cc2)cc1C1CCN(C[C@H]2CN([C@@H](C(=O)O)C(C)(C)C)C[C@@H]2c2cccc(F)c2)CC1 ; strain or isolate: BaL ; setting: 50% human serum ; cells: HeLa ; read-out: EC90 ; method: β-galactosidase ; value: 0.033 µM
CCCc1cc(=O)oc2c3c(c4c(c12)OC(C)(C)C=C4)O[C@@H](C)[C@H](C)[C@@H]3O ; strain or isolate: UC10-resistant (RT K103N) ; changes: RT-K103N ; cells: CEM + CEM-SS ; read-out: EC50 ; method: XTT ; value: >270 µM
CCOc1ccc(Cc2cc(C3CCN(C[C@H]4CN([C@@H](C(=O)O)C5CCCCC5)C[C@@H]4c4cccc(F)c4)CC3)n(CC)n2)cc1 ; strain or isolate: BaL ; cells: HeLa ; read-out: EC90 ; method: β-galactosidase ; value: <0.00014 µM
Cc1cn([C@H]2C[C@H](N=[N+]=[N-])[C@@H](CO)O2)c(=O)[nH]c1=O ; strain or isolate: NL4-3 WT ; cells: HeLa ; read-out: EC50 ; method: luciferase ; value: 0.0164 µM
Cc1cc(S(N)(=O)=O)ccc1NC(=O)COc1ccc(Cl)cc1C(=O)c1cc(Cl)cc(C#N)c1 ; strain or isolate: NNRTI-resistant (RT Y188L) ; changes: RT-Y188L ; cells: MAGI ; read-out: fold resistance ; method: β-galactosidase ; value: 40.4
O=C1N(Cc2ccc(CO)cc2)[C@H](Cc2ccccc2)[C@H](O)[C@@H](O)[C@@H](Cc2ccccc2)N1Cc1ccc(CO)cc1 ; strain or isolate: Clinical isolate X ; cells: PBMC ; read-out: inhibition ; method: p24 ; tested at: 0.29 µM ; value: 90%
CC[C@@H](C)[C@H](C(=O)O)N1C[C@H](CN2CCC(c3cc(Cc4cccc5ccccc45)nn3CC)CC2)[C@@H](c2cccc(F)c2)C1 ; strain or isolate: BaL ; setting: 50% human serum ; cells: HeLa ; read-out: EC90 ; method: β-galactosidase ; value: 0.033 µM
CCCCCCCCCCCCCCCCOP(=O)(OC[C@H]1OC(O)[C@H](O)[C@@H](O)[C@@H]1O)OC[C@H]1O[C@@H](n2cc(C)c(=O)[nH]c2=O)C[C@@H]1N=[N+]=[N-] ; strain or isolate: LAV-Bru ; setting: 15 d ; cells: CEM ; read-out: inhibition ; method: RT activity ; tested at: 0.2 µM ; value: 92%
CCOc1ccc(Cc2cc(C3CCN(C[C@H]4CN([C@@H](C(=O)O)C(C)(C)C)C[C@@H]4c4cccc(F)c4)CC3)n(CC)n2)cc1F ; strain or isolate: BaL ; setting: 50% human serum ; cells: HeLa ; read-out: EC90 ; method: β-galactosidase ; value: 0.011 µM
Cc1ccnc2c1NC(=O)c1cccnc1N2C1CC1 ; changes: RT-K70R K101E ; cells: MT-4 ; read-out: EC95 ; value: >3 µM
CC[C@@H](C)[C@H](C(=O)O)N1C[C@H](CN2CCC(c3cc(Cc4cc(C(F)(F)F)cc(C(F)(F)F)c4)nn3CC)CC2)[C@@H](c2cccc(F)c2)C1 ; strain or isolate: BaL ; cells: HeLa ; read-out: EC90 ; method: β-galactosidase ; value: 0.033 µM
Cc1cn([C@H]2C[C@H](N=[N+]=[N-])[C@@H](CO)O2)c(=O)[nH]c1=O ; strain or isolate: UC38-resistant (RT Y181C) ; changes: RT-Y181C ; cells: CEM + CEM-SS ; read-out: EC50 ; method: XTT ; value: 0.01 µM

A second listing of 3 rows from above:

smiles,strain or isolate,setting,changes,cells,read-out,method,tested at,value
O=C1N(Cc2ccc(CO)cc2)[C@H](Cc2ccccc2)[C@H](O)[C@@H](O)[C@@H](Cc2ccccc2)N1Cc1ccc(CO)cc1,NL4-3,,PR-M46I L63P V82T I84V,MT-4,EC95,p24,,3 µM
CC[C@@H](C)[C@H](C(=O)O)N1C[C@H](CN2CCC(c3cc(Cc4cc(C(F)(F)F)cc(C(F)(F)F)c4)nn3CC)CC2)[C@@H](c2cccc(F)c2)C1,BaL,,,HeLa,EC90,β-galactosidase,,0.033 µM
Cc1ccnc2c1NC(=O)c1cccnc1N2C1CC1,NL4-3,,RT-V179D,CEM + CEM-SS,EC50,XTT,,0.03 µM